Target: denosumab (XGEVA)
Test: cell-based or functional assay

IdeS BX1001865 (enzyme) gave a Conc. of enzyme for 1st IgG2 (XGEVA) heavy chain cleavage (IgG to scIgG), SDS-PAGE of 14 ng/mL.
